Measurements reported in the supplement of paper PMC4206461.
This is a selection; strong and weak results do not stand in their true shares.

What follows are molecules tested on Pseudomonas aeruginosa PA14 dppBCDF deletion mutant (assay: respiration area under curve with compound as sole nitrogen source, 24 h (OmniLog AUC (arbitrary units)); higher = more respiration / better utilisation as nitrogen source, active = 2000 or more). Conditions: plate: PM8.
Description: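 Biolog Phenotype MicroArray plates PM6-PM8: each di/tripeptide is the sole nitrogen source. Tetrazolium reduction was read in the OmniLog every 15 min for 24 h at 37°C and summarised as area under the respiration curve (arbitrary units). Values below 2000 count as no respiration. Strain is the dipeptide ABC transporter deletion mutant. Lys/His/Cys peptides are excluded (dye reduction without growth).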

SMILES	respiration area under curve
CC(C)C[C@H](N)C(=O)N[C@@H](Cc1ccc(O)cc1)C(=O)O	active: 6090
